From article PMC7526519 come the findings set out here.

The assay deals with SARS-CoV-2 receptor binding domain (RBD), His-tagged (SARS-CoV-2) (UniProt P0DTC2). The assay is described as follows: SPR. To be noted: Fc fusion.

Broadly, the Kd is the free concentration of one partner at which half of the binding sites on the other are occupied at equilibrium, for simple one-to-one binding. The low end stands for higher affinity, the high end for lower affinity.

As for “little brown bat ACE2 ectodomain fused with mouse Fc”, the Kd was determined as 312 nM.
For fox ACE2 ectodomain fused with mouse Fc the value was 40.6 nM.
